Compound potency records, mixed from different reports. Data source: NIAID ChemDB in PubChem.

Common to all: growth or infection tests; species: Candida albicans; measure: MIC50

Blank or dashed fields: not listed here. Conditions beyond the fields shown may differ between rows. MIC50, MIC90 and the like: level of inhibition, or share of isolates inhibited.

compound | strain or isolate | result
CCC(C)n1ncn(-c2ccc(N3CCN(c4ccc(OC[C@H]5CO[C@](Cn6cncn6)(c6ccc(Cl)cc6Cl)O5)cc4)CC3)cc2)c1=O |  | 0.1 µg/mL
Fc1ccc(C(c2ccc3ccccc3c2)n2ccnc2)cc1 | 23 strains | 4 µg/mL
COc1ccc(C(Cc2c(Cl)cccc2Cl)n2ccnc2)cc1 | 34 strains | 32 µg/mL
CCc1ccc(CSc2ncccc2CN2CCN(C(=N)N)CC2)cc1 | SC5314 CAI | 37.5 µg/mL
C[C@H]1[C@H](O)[C@@H](C)/C=C/C=C/C=C/C=C/C=C/C=C/C=C/[C@H](O[C@@H]2O[C@H](C)[C@@H](O)[C@H](N)[C@@H]2O)C[C@@H]2O[C@](O)(C[C@@H](O)C[C@@H](O)CC[C@H](O)[C@@H](O)C[C@@H](O)CC(=O)O[C@H]1C)C[C@H](O)[C@H]2C(=O)O | 63 isolates | 0.25 µg/mL
C[C@@H](c1ncncc1F)[C@](O)(Cn1cncn1)c1ccc(F)cc1F | ATCC 90028 | 0.0027 µg/mL
COC(/C=C/c1ccccc1)=C1/C(=O)C=C(C)C1=O | Isolate 5 azole-resistant | 0.4 µg/mL
Cc1ccc(C(c2cccc3ccccc23)n2ccnc2)cc1 | 23 strains | 8 µg/mL
CCC(C)CC(C)CCCCCCCCC(=O)N[C@H]1C[C@@H](O)[C@@H](OCCN)NC(=O)[C@@H]2[C@@H](O)CCN2C(=O)[C@H]([C@@H](O)CCN)NC(=O)[C@H]([C@H](O)[C@@H](O)c2ccc(O)cc2)NC(=O)[C@@H]2C[C@@H](O)CN2C(=O)[C@H]([C@H](C)O)NC1=O | Fluconazole-susceptible | 0.01 µg/mL
COc1ccc(C(Cc2ccccc2Cl)n2ccnc2)cc1 | 34 strains | 256 µg/mL
C[C@@H](c1nc(-c2ccc(C#N)cc2)cs1)[C@](O)(Cn1cnnc1)c1ccc(F)cc1F | 34 isolates | 0.008 µg/mL
CCC(C)n1ncn(-c2ccc(N3CCN(c4ccc(OC[C@H]5CO[C@](Cn6cncn6)(c6ccc(Cl)cc6Cl)O5)cc4)CC3)cc2)c1=O | 10 isolates azole-resistant | 0.4 µg/mL
CS(=O)(=O)c1ccc(CSc2ncccc2CN2CCN(C(=N)N)CC2)cc1 | SC5314 CAI | >100 µg/mL
c1ccc(C(c2cccc3ccccc23)n2ccnc2)cc1 | 23 strains | 8 µg/mL
c1ccc(-c2ccc(C(c3ccccc3)n3ccnc3)cc2)cc1 | 16 strains | 2 µg/mL
C=CCSS(=O)CC=C.CC(=O)N1CCN(c2ccc(OC[C@H]3CO[C@](Cn4ccnc4)(c4ccc(Cl)cc4Cl)O3)cc2)CC1 | ATCC 14053 | 0.031 µg/mL
CCCCCCCCCCCCCCCC(=O)NC1CC(O)C(O)NC(=O)C2C(O)C(C)CN2C(=O)C(C(O)CC(N)=O)NC(=O)C(C(O)Cc2ccc(O)c(OS(=O)(=O)O)c2)NC(=O)C2CC(O)CN2C(=O)C(C(C)O)NC1=O | FP578 | 0.008 µg/mL
N=C(N)N1CCN(Cc2cccnc2SCc2ccc(F)cc2F)CC1 | SC5314 CAI | >100 µg/mL
CCC(C)n1ncn(-c2ccc(N3CCN(c4ccc(OC[C@H]5CO[C@](Cn6cncn6)(c6ccc(Cl)cc6Cl)O5)cc4)CC3)cc2)c1=O | 2453 strains | 0.03 µg/mL
COc1ccc(C(Cc2ccccc2-n2cccc2)n2ccnc2)cc1 | 34 strains | 16 µg/mL
Cc1ccccc1CSc1ncccc1CN1CCN(C(=N)N)CC1 | SC5314 CAI | >100 µg/mL
COc1ccc(C(c2cccc3ccccc23)n2ccnc2)cc1 | 23 strains | 32 µg/mL
CCC(C)n1ncn(-c2ccc(N3CCN(c4ccc(OC[C@H]5CO[C@](Cn6cncn6)(c6ccc(Cl)cc6Cl)O5)cc4)CC3)cc2)c1=O | 13 strains (fluconazole-resistant) | >8 µg/mL
C[C@H]1[C@H](O)[C@@H](C)/C=C/C=C/C=C/C=C/C=C/C=C/C=C/[C@H](O[C@@H]2O[C@H](C)[C@@H](O)[C@H](N)[C@@H]2O)C[C@@H]2O[C@](O)(C[C@@H](O)C[C@@H](O)CC[C@H](O)[C@@H](O)C[C@@H](O)CC(=O)O[C@H]1C)C[C@H](O)[C@H]2C(=O)O |  | 0.78 µg/mL
CCC(C)n1ncn(-c2ccc(N3CCN(c4ccc(OC[C@H]5CO[C@](Cn6cncn6)(c6ccc(Cl)cc6Cl)O5)cc4)CC3)cc2)c1=O | 1992 isolates | 0.03 µg/mL
N=C(N)N1CCN(Cc2cccnc2SCc2cccc(F)c2F)CC1 | SC5314 CAI | >100 µg/mL
Clc1ccc(C(c2ccc3ccccc3c2)n2ccnc2)s1 | 23 strains | 2 µg/mL
O[C@](Cn1cncn1)(Cn1cnc(/C=C/c2ccc(OCC(F)(F)C(F)F)cc2)n1)c1ccc(F)cc1F | 50 strains (fluconazole-resistant) | 0.25 µg/mL
Clc1ccc(C(c2ccc3ccccc3c2)n2ccnc2)cc1 | 23 strains | 4 µg/mL
C[C@H]1[C@H](O)[C@@H](C)/C=C/C=C/C=C/C=C/C=C/C=C/C=C/[C@H](O[C@@H]2O[C@H](C)[C@@H](O)[C@H](N)[C@@H]2O)C[C@@H]2O[C@](O)(C[C@@H](O)C[C@@H](O)CC[C@H](O)[C@@H](O)C[C@@H](O)CC(=O)O[C@H]1C)C[C@H](O)[C@H]2C(=O)O | 34 isolates | 0.5 µg/mL
CN1CCN(c2ccc3nc(-c4ccc5nc(-c6ccc(O)cc6)[nH]c5c4)[nH]c3c2)CC1 | RO109 | 7 µM
COc1ccc(C(Cc2ccc(Cl)cc2)n2ccnc2)cc1 | 34 strains | 16 µg/mL
CCCCCOc1ccc(-c2ccc(-c3ccc(C(=O)N[C@H]4C[C@@H](O)[C@@H](O)NC(=O)[C@@H]5[C@@H](O)[C@@H](C)CN5C(=O)[C@H]([C@H](C)O)NC(=O)[C@H]([C@H](O)[C@@H](O)c5ccc(O)cc5)NC(=O)[C@@H]5C[C@@H](O)CN5C(=O)[C@H]([C@H](C)O)NC4=O)cc3)cc2)cc1 | 10 strains (fluconazole-resistant) | 0.06 µg/mL
C=CCSS(=O)CC=C | ATCC 14053 | 0.05 µg/mL
Clc1ccccc1C(c1ccccc1)(c1ccccc1)n1ccnc1 | 15 isolates | 10 µg/mL
C[C@@H](c1ncncc1F)[C@](O)(Cn1cncn1)c1ccc(F)cc1F | 32 strains | 0.06 µg/mL
N=C(N)N1CCN(Cc2cccnc2SCc2ccccc2CS(=O)(=O)c2ccccc2)CC1 | SC5314 CAI | 12.5 µg/mL
Cc1ccc(C(C)C)cc1O |  | 64 µg/mL

A second listing of 5 rows from above:

CCCCCCCCCCCCCCCC(=O)NC1CC(O)C(O)NC(=O)C2C(O)C(C)CN2C(=O)C(C(O)CC(N)=O)NC(=O)C(C(O)Cc2ccc(O)c(OS(=O)(=O)O)c2)NC(=O)C2CC(O)CN2C(=O)C(C(C)O)NC1=O ; strain or isolate: FP578 ; result: 0.008 µg/mL
C[C@@H](c1nc(-c2ccc(C#N)cc2)cs1)[C@](O)(Cn1cnnc1)c1ccc(F)cc1F ; strain or isolate: 34 isolates ; result: 0.008 µg/mL
CCC(C)n1ncn(-c2ccc(N3CCN(c4ccc(OC[C@H]5CO[C@](Cn6cncn6)(c6ccc(Cl)cc6Cl)O5)cc4)CC3)cc2)c1=O ; strain or isolate: 10 isolates azole-resistant ; result: 0.4 µg/mL
CCCCCOc1ccc(-c2ccc(-c3ccc(C(=O)N[C@H]4C[C@@H](O)[C@@H](O)NC(=O)[C@@H]5[C@@H](O)[C@@H](C)CN5C(=O)[C@H]([C@H](C)O)NC(=O)[C@H]([C@H](O)[C@@H](O)c5ccc(O)cc5)NC(=O)[C@@H]5C[C@@H](O)CN5C(=O)[C@H]([C@H](C)O)NC4=O)cc3)cc2)cc1 ; strain or isolate: 10 strains (fluconazole-resistant) ; result: 0.06 µg/mL
COc1ccc(C(c2cccc3ccccc23)n2ccnc2)cc1 ; strain or isolate: 23 strains ; result: 32 µg/mL